Compound potency records, mixed from different reports. Data source: NIAID ChemDB in PubChem.

All rows: toxicity to cultured cells; cells: MT-4; endpoint: CC50

Rows are shuffled and stem from different studies.

c1cc(CNCCN2CCOCC2)ccc1CNCCN1CCOCC1 ; read by: MTT ; value: 236.4 µM
Fc1cccc(F)c1CCNC(=S)Nc1ccc(Br)cn1 ; value: 269 µM
CCc1c(Cc2cc(C)cc(C)c2)n(COCc2cn([C@H]3CC(n4cc(C)c(=O)[nH]c4=O)OC3CO)nn2)c(=O)[nH]c1=O ; read by: MTT ; value: >100 µM
N#Cc1ccc(Nc2nc(Oc3c(Cl)cc(Cl)cc3Cl)ncc2[N+](=O)[O-])cc1 ; read by: MTT ; value: ≥25 µM
CCc1c(Cc2cc(C)cc(C)c2)n(COCCO)c(=O)[nH]c1=O ; value: 256 µM
Cc1ccc(NC(=S)NCCc2ccccc2)nc1 ; value: 368 µM
C/C=C/CN1C(=O)c2cccn2S(=O)(=O)c2ccc(Cl)cc21 ; value: 300 µM
CCc1c(Cc2cc(C)cc(C)c2)n(COCC#Cc2ccc(C#CCOCn3c(Cc4cc(C)cc(C)c4)c(CC)c(=O)[nH]c3=O)cc2)c(=O)[nH]c1=O ; read by: MTT ; value: 85 µM
CC(C)Nc1cccnc1N1CCN(C(=O)c2cc3cc(NS(C)(=O)=O)ccc3[nH]2)CC1 ; read by: MTT ; value: >36 µM
Nc1cc2c(=O)c(C(=O)O)cn(C3CC3)c2cc1NC1CC1 ; value: >200 µM
Cc1cn([C@H]2C[C@H](N=[N+]=[N-])[C@@H](CO)O2)c(=O)[nH]c1=O ; value: 7.8 µM
CN(C)C(=O)N1CCN(C(=O)N2CCCCC2)CC1 ; read by: MTT ; value: >125 µg/mL
CCC(C)Oc1cc(=O)[nH]c(Sc2ccccc2Cl)n1 ; value: 150 µM
O=c1ccn([C@H]2CC[C@@H](CO)O2)c(=O)[nH]1 ; value: >625 µM
CC1CCCCN1CCCNCCc1ccc(CCNCCCN2CCCCC2C)cc1 ; read by: MTT ; value: 117 µM
Cn1ncc2c1S(=O)(=O)N(CCc1ccc(C(C)(C)C)cc1)C(=O)N2CCc1ccc(C(C)(C)C)cc1 ; read by: MTT ; value: 7.1 µM
CCc1c(Cc2cc(C)cc(C)c2)n(COCC#CC#CCOCn2c(Cc3cc(C)cc(C)c3)c(CC)c(=O)[nH]c2=O)c(=O)[nH]c1=O ; read by: MTT ; value: 9 µM
Cc1cc(CC(C)C#N)cc(C)c1Nc1ccnc(Nc2ccc(C#N)cc2)n1 ; read by: MTT ; value: 1 µM
CCC(C)Oc1cc(N)nc(Sc2cccc(N)c2)n1 ; value: 112 µM
Cc1cn([C@H]2C[C@H](N=[N+]=[N-])[C@@H](CO)O2)c(=O)[nH]c1=O ; value: >100 µM
Cc1cc(/C=C(\C#N)CC#N)cc(C)c1Nc1ccnc(Nc2ccc(C#N)cc2)n1 ; read by: MTT ; value: 2 µM
COc1ccc(Br)cc1CCNC(=S)Nc1nccs1 ; value: 107 µM
c1cc(CNCCCN2CCOCC2)ccc1CCNCCCN1CCOCC1 ; read by: MTT ; value: >61.79 µM
Cc1cn([C@H]2C[C@H](N=[N+]=[N-])[C@@H](CO)O2)c(=O)[nH]c1=O ; value: >0.004 µM
COc1cccc(F)c1CCNC(=S)Nc1nccs1 ; value: 48 µM
Cc1ccnc2c1NC(=O)c1cccnc1N2C1CC1 ; value: >97.6 µM
Cc1cn([C@H]2C[C@H](N=[N+]=[N-])[C@@H](CO)O2)c(=O)[nH]c1=O ; read by: MTT ; value: >1 µg/mL
S=C(NCCc1ccccn1)Nc1ccc(Cl)cn1 ; value: 68 µM
O=C(CN1CCN(Cc2ccccc2)CC1)OC[C@@H]1CC[C@H](n2cnc3c(=O)[nH]cnc32)O1 ; read by: MTT ; value: >1000 µM
CCc1c(Cc2ccccc2C)n(COCC#CC#CCOCn2c(Cc3ccccc3C)c(CC)c(=O)[nH]c2=O)c(=O)[nH]c1=O ; read by: MTT ; value: 8 µM
O=C(CN1CCN(c2ccc(Cl)cc2)CC1)OC[C@@H]1CC[C@H](n2cnc3c(=O)[nH]cnc32)O1 ; read by: MTT ; value: >1000 µM
COc1cccc(CCNC(=S)Nc2nccs2)c1 ; value: 34 µM
CN(C)C(=O)N1CCN(C(=O)N(C)CCN2CCCCC2)CC1 ; read by: MTT ; value: 125 µg/mL
C=CCN1C(=O)c2cccn2S(=O)(=O)c2ccc(Cl)cc21 ; value: 32 µM
CSc1nc2c(c(=O)[nH]1)C(c1ccc([N+](=O)[O-])cc1)c1c(nc(SC)[nH]c1=O)O2 ; value: 188.9 µM
Oc1ccccc1CN(CCN1CCCCC1)CC1CCCN(C2CCCC2)C1 ; read by: MTT ; value: 36 µM
c1cc(CNCCCN2CCCCC2)ccc1CCNCCCN1CCCCC1 ; read by: MTT ; value: >62.4 µM
C#CCOCn1c(Cc2cc(C)cc(C)c2)c(CC)c(=O)[nH]c1=O ; read by: MTT ; value: >100 µM
O=C(O)C(=O)CC(=O)c1cc(OCc2ccccc2)cc(OCc2ccccc2)c1 ; value: 88.3 µM
CCCCSc1nc(Sc2ccc3ccccc3c2)cc(=O)[nH]1 ; value: >200 µM
c1cc(CCNCCN2CCCCC2)ccc1CCNCCN1CCCCC1 ; read by: MTT ; value: 129 µM
CCC(C)Oc1cc(=O)[nH]c(S(=O)(=O)c2cc(C)cc(C)c2)n1 ; value: 119 µM
Cc1cc(/C=C/CC#N)cc(C)c1Nc1ccnc(Nc2ccc(C#N)cc2)n1 ; read by: MTT ; value: 10 µM
COc1nc(=O)[nH]c2c1C(c1ccc(Br)cc1)c1c(OC)nc(=O)[nH]c1O2 ; value: >309 µM
CCOC(=O)C1Nc2ccccc2S(=O)(=O)n2cccc21 ; value: >300 µM
CCOCn1c(Sc2cc(C)cc(C)c2)c(CC)c(=O)[nH]c1=S ; value: >100 µM
CC1(C)C2CC[C@@]3(C)C4CC[C@@]5(C)CC[C@](C)(C(=O)O)C[C@H]5C4=CC(=O)C3[C@@]2(C)CC[C@@H]1O[C@@H]1O[C@H](C(=O)O)[C@@H](O[C@@H]2O[C@H](C(=O)O)[C@@H](O)[C@H](O)[C@H]2O)[C@H](O)[C@H]1O ; value: 1950 µg/mL
CCC(C)Oc1nc(N)cc(Sc2cc(C)cc(C)c2)n1 ; value: 117 µM
Cc1cn([C@H]2C=C[C@@H](CO)O2)c(=O)[nH]c1=O ; value: 15 µM
Cc1cc(C#N)cc(C)c1Oc1ncc([N+](=O)[O-])c(Nc2ccc(C#N)cc2)n1 ; read by: MTT ; value: ≥274 µM
CC1(C)[C@@H](O[C@H]2O[C@H](C(=O)O)[C@@H](O)[C@H](O)[C@H]2O[C@@H]2O[C@H](C(=O)O)[C@@H](O)[C@H](O)[C@H]2O)CC[C@]2(C)[C@H]3C(=O)C=C4[C@@H]5C[C@@](C)(C(=O)O)CC[C@]5(C)CC[C@@]4(C)[C@]3(C)CC[C@@H]12 ; value: >1193 µM
CC1CCN(CCCN2c3ccccc3NC(C)c3cccn32)CC1 ; value: 173 µM
O=c1[nH]c2c(c(=O)[nH]1)C(c1ccc(I)cc1)c1c([nH]c(=O)[nH]c1=O)O2 ; value: >276 µM
COc1ccc(CN(CCN2CCCCC2)CC2CCCN(C3CCCC3)C2)cc1O ; read by: MTT ; value: 96 µM
Cc1cc(Br)cc(C)c1Oc1ncc(NC(=O)C(F)(F)F)c(Nc2ccc(C#N)cc2)n1 ; read by: MTT ; value: >246 µM
CCOCn1c(Cc2ccccc2)c(C(C)C)c(=O)[nH]c1=O ; read by: MTT ; value: >100 µM
Cn1ncc2c1S(=O)(=O)N(CCc1ccc(Cl)cc1Cl)C(=O)N2CCc1ccc(Cl)cc1Cl ; read by: MTT ; value: >253 µM
CCN(CC)C(=O)N1CCN(C(=O)N2CCCCC2)CC1 ; read by: MTT ; value: >125 µg/mL
c1ccc2c(c1)Cn1cccc1-c1nncn1-2 ; value: >300 µM
c1cc(CCNCCN2CCOCC2)ccc1CCNCCN1CCOCC1 ; read by: MTT ; value: >320.1 µM
Cn1ncc2c1S(=O)(=O)N(CCc1ccccc1)C(=O)N2CCc1cccc(C#N)c1 ; read by: MTT ; value: >307.1 µM
CCc1c(Sc2cc(C)cc(C)c2)n(COCc2ccccc2)c(=S)[nH]c1=O ; value: >20 µM
Cn1ncc2c1S(=O)(=O)N(CCc1ccccc1)C(=O)N2CCc1ccc(Cl)cc1 ; read by: MTT ; value: 53.9 µM
CN1CCN(CCCNCCc2ccc(CCNCCCN3CCN(C)CC3)cc2)CC1 ; read by: MTT ; value: 81.02 µM
O=[N+]([O-])CC1Nc2ccccc2S(=O)(=O)n2cccc21 ; value: 7 µM
CCn1cc(C(=O)O)c(=O)c2cc(F)c(N3CCN(CC(=O)OC[C@@H]4CC[C@H](n5cnc6c(=O)[nH]cnc65)O4)CC3)cc21 ; read by: MTT ; value: 560 µM
Cn1ncc2c1S(=O)(=O)N(CCc1ccccc1)C(=O)N2CCc1ccc(C(C)(C)C)cc1 ; read by: MTT ; value: >285.4 µM
Cc1csc(NC(=S)NCCc2ccccc2)n1 ; value: 360 µM
COc1nc(=O)[nH]c2c1C(c1ccc([N+](=O)[O-])cc1)c1c(OC)nc(=O)[nH]c1O2 ; value: >313 µM
Cc1cc(C=O)cc(C)c1Oc1ncc(NC(=O)C(F)(F)F)c(Nc2ccc(C#N)cc2)n1 ; read by: MTT ; value: ≥216 µM
CC(C)N1C(=O)c2cccn2S(=O)(=O)c2ccccc21 ; value: 100 µM

CCn: concentration that lowers growth or viability of the cells by n%.